Structures are written as SMILES. The entries are a selection whose mix differs from that of the whole data set. Active and inactive are the calls of the source. Rule as the data show it: active = activity change below about -65%; inconclusive = mostly about -30% to -63%; inactive = weaker than that.
% is scaled to controls: 0 for no effect and ±100 for the full control effect.

The assay deals with CtBP / adenovirus E1A interaction (AlphaScreen). Kind of assay: qHTS Assay for Inhibitors of the CtBP/E1A Interaction. Particulars: AlphaScreen GST-E1A/His-CtBP binding, 1536-well; hits give low values. In a few lines: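 Steps: dispense buffer (Tris pH 8.0, NaCl 300 mM, TCEP 1 mM, BSA, Tween 20); add 5X protein mix (GST-E1A, His-CtBP, 125 nM each); pin 23 nL compound; 2 h at 37 °C, dark; add 5X beads (50 ug/mL); 1 h; read.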
A general note: qHTS replaces the single test concentration by a dilution series.
In the case of `O=P1(N(CCCl)CCCl)OCCCN1CCCl` (stereo not drawn), the activity change is inactive: 12.5%. With `Cc1cc(=O)[nH]c(N[N+](=O)[O-])n1`, the activity change is inactive: 0.22%. For `CCN(CC)CCCOC(=O)C(O)(c1ccccc1)c1ccccc1` the value was inactive: -7.38%; for `O=C(OC1CN2CCC1CC2)C12CC3CC(CC(C3)C1)C2` (stereo not drawn), inactive: -9.63%; for `Cc1cc(C)cc(OP(C)(N)=O)c1` (stereo not drawn), inactive: -8.12%. Regarding `O=[N+]([O-])c1cc([N+](=O)[O-])c(-c2ccn[nH]2)s1`, the activity change was inactive: -26.4%.

As for `COc1ccc(OP(C)(=O)Nc2cccc(F)c2)cc1` (stereo not drawn), the activity change is inactive: -2.05%. To `CCN(CC)C(=S)SC(NC=O)C(Cl)(Cl)Cl` (stereo not drawn) belongs inactive: 6.43%; to `O=C(OC1CN2CCC1CC2)c1cccc2[nH]cnc12` (stereo not drawn), inactive: 2.35%; to `COc1ccccc1OP(C)(=O)Nc1cc(Cl)ccc1C` (stereo not drawn), inactive: 0%. As to `CC(C)NC(=O)NP(=O)(Oc1ccccc1)Oc1ccccc1`, the activity change is inactive: -22.1%. For `COC(=O)C1(C)COP(=O)(N2CCCCCC2)OC1` (stereo not drawn), the activity change is inactive: 16.1%. For `COc1ccccc1OP(C)(=O)Nc1ccc(C)cc1` (stereo not drawn) the value was inactive: -2.72%; for `ClCCSc1nnc(-c2cccnc2)o1`, inactive: 7.16%. Regarding `CCOC(=O)c1ccc(NP(C)(=O)Oc2ccccc2)cc1` (stereo not drawn), the activity change is inactive: 5.47%. Take `Cc1ccc2nc3c(c(C)c2c1)CC(C(Cl)Cl)S3` (stereo not drawn): the activity change is inactive: 14.5%. With `O=[N+]([O-])c1ccc2c(c1)C=Nc1ccccc1O2`, the activity change was inactive: -23.4%. `Cc1cccc(C)c1OP(C)(N)=O` (stereo not drawn): the activity change was inactive: -5.26%. To `CC(C)(C)c1ccc(OP(C)(=O)Nc2ccc(SC(F)(F)F)cc2)cc1` (stereo not drawn) belongs inactive: 2.74%; to `[N-]=[N+]=NC1CCCCC1NC(=O)c1cc([N+](=O)[O-])cc([N+](=O)[O-])c1` (stereo not drawn), inactive: 1.1%.

As to `COc1cc(C(=O)NCC2(N3CCOCC3)CCCCC2)ccc1OCC(C)C`, the activity change was inactive: -10.8%. For `O=[N+]([O-])c1ccc(-c2cc([N+](=O)[O-])c(O)c([N+](=O)[O-])c2)cc1` the value was inactive: -0.127%; for `O=[As](O)(c1ccc(O)cc1)c1ccccc1O`, inactive: 13.7%. For `O=[N+]([O-])c1cc([N+](=O)[O-])c(Nc2cccnc2)c([N+](=O)[O-])c1` the value was inactive: -27.9%. To `CP(=O)(Nc1ccccc1Br)Oc1ccccc1` (stereo not drawn) belongs inactive: -6.12%; to `COc1ccccc1OP(C)(=O)Nc1ccccc1` (stereo not drawn), inactive: 15.3%. Turning to `O=P(Nc1ccccn1)(c1cccc2ccccc12)c1cccc2ccccc12`, the activity change was inactive: -5.52%. Take `Cc1cc(SC(NC=O)C(Cl)(Cl)Cl)ncn1` (stereo not drawn): the activity change is inactive: -2.12%.

Turning to `CCOC(=O)Nc1cccc([As](=O)(O)O)c1`, the activity change was inactive: -18.1%. For `CP(=S)(Nn1cnnc1)Oc1ccccc1` (stereo not drawn) the value was inactive: -0.586%; for `Cc1cc(SC(NC(=O)c2ccccc2)C(Cl)(Cl)Cl)nc(C(C)C)n1` (stereo not drawn), inactive: -1.24%. For `CCCCOc1ccc(C(=O)NCC2(N3CCCCC3)CCCCC2)cc1OC` the value was inactive: -1.42%; for `COP(=O)(OC)N1CC1c1ccccc1` (stereo not drawn), inactive: -5.5%. On to `CC1CCNP(=O)(N(CCCl)CCCl)O1` (stereo not drawn), for which the activity change is inactive: 12.4%.

On to `CCOC(=O)Nc1ccc([As](=O)(O)O)c(O)c1`, for which the activity change was inactive: 9.87%. To `O=C(O)C(=O)c1ccc(N(CCCl)CCCl)cc1.c1ccc(Nc2ccccc2)cc1` belongs inactive: 27.5%. For `CP(=O)(Nc1ccccn1)Oc1ccc(Cl)cc1` (stereo not drawn) the value was inactive: 8.32%. For `CCC(C)N(CC(C)C)C(=S)SC(NC(C)=O)C(Cl)(Cl)Cl` (stereo not drawn) the value was inactive: -7.44%; for `CCOC(=O)c1ccc(NP(C)(=O)Oc2ccc(OC)cc2)cc1` (stereo not drawn), inactive: 0.573%; for `CCOC(=O)c1ccc(NC(=O)C(C)(CCl)SC)cc1` (stereo not drawn), inactive: -1.56%. With `O=[N+]([O-])c1cc([N+](=O)[O-])c(O)c([N+](=O)[O-])c1.c1ccc(Oc2ccncc2)cc1`, the activity change was inactive: 4.92%. In the case of `CSc1ccc(Nc2c([N+](=O)[O-])cc([N+](=O)[O-])cc2[N+](=O)[O-])cc1`, the activity change was inactive: -7.35%.

Turning to `CCOP(C)(=S)SCC(=O)NC(C)C(=O)O` (stereo not drawn), the activity change was inactive: 2.42%. For `O=C(OC1CN2CCC1CC2)c1cccc([N+](=O)[O-])c1` (stereo not drawn) the value was inactive: 8.46%; for `Cc1cc(C)cc(OP(C)(=O)Nc2ccc(SC(F)(F)F)cc2)c1` (stereo not drawn), inactive: -21%.

For `O=C(COc1ccccc1)OC1CN2CCC1CC2` (stereo not drawn), the activity change was inactive: 0%. For `CP(=O)(NC(=O)Nc1ccccc1)Oc1ccccc1` (stereo not drawn) the value was inactive: -4.89%; for `CP(=O)(Oc1ccccc1)OC(c1ccccc1)C(F)(F)F` (stereo not drawn), inactive: 7.98%. Regarding `COC(=O)C1(C)COP(=O)(N2CCCC2)OC1` (stereo not drawn), the activity change was inactive: -7.59%. Turning to `Cc1cccc(C)c1OP(C)(=O)Nc1ccc(SC(F)(F)F)cc1` (stereo not drawn), the activity change is inactive: -7.77%. With `COP1(=S)c2c(C)nn(CCC#N)c2N=C(c2ccc(F)cc2)N1C` (stereo not drawn), the activity change is inactive: 0.521%.

With `CN(C)C(=O)OCCc1n(C)cc[n+]1C`, the activity change is inactive: 10.8%.

For the compound `CC(C)=N/N=C(\N)N[N+](=O)[O-]`, the activity change is inactive: 3.09%. For `CC(C)c1nc(Nc2ccccc2)n(P(=O)(N(C)C)N(C)C)n1`, the activity change is inactive: 4%. Take `c1cc(-c2nn[nH]n2)ccc1-c1nn[nH]n1`: the activity change was inactive: -13.4%.

As to `CC1CCN(C(=O)Oc2c(Cl)cc(Cl)c3cccnc23)CC1`, the activity change was inactive: 8.16%. For `CC(C)(C)c1ccc(OP(C)(=O)O)cc1` the value was inactive: 4.72%; for `Nc1ccc([As](=O)(O)c2ccc(N)cc2)cc1`, inactive: 5.08%; for `COc1ccccc1OP(C)(=O)Nc1ccccc1Br` (stereo not drawn), inactive: 6.4%. To `CP(=O)(Nc1ccc(Cl)cc1)Oc1ccc(F)cc1` (stereo not drawn) belongs inactive: 6.97%; to `CCN(/C(=N/P(=O)(N1CCOCC1)N1CCOCC1)N1CCOCC1)c1ccc(OC)cc1`, inactive: 4.92%. Turning to `O=C(OCCCN1CCCC1)C(O)(c1ccccc1)C1CCCCC1` (stereo not drawn), the activity change is inactive: -6.55%. Consider `COc1ccccc1OP(C)(=O)Nc1c(C)n(C)n(-c2ccccc2)c1=O` (stereo not drawn), for which the activity change is inactive: -0.541%.

Turning to `O=[N+]([O-])c1cccc2n[nH]nc12`, the activity change is inactive: 10.5%. To `CC(=O)N1C2C3N(C(C)=O)C1C1N(C(C)=O)C(C(N1C(C)=O)N3C(C)=O)N2C(C)=O` belongs inactive: 9.27%; to `CCc1nc2c(n1)c1c(non1O)c1c2no[n+]1[O-]`, inactive: -2.23%; to `O=[N+]([O-])c1cc([N+](=O)[O-])c(CCNc2ccccc2)c([N+](=O)[O-])c1`, inactive: -14.4%. In the case of `CCc1ccc(OP(C)(=O)Nc2cccnc2)cc1` (stereo not drawn), the activity change is inactive: 2.4%.

Turning to `CP(=O)(Oc1ccccc1)N1CCOC1=O` (stereo not drawn), the activity change was inactive: 3.62%. As to `Cc1ccc(NP(=O)(Oc2ccccc2)Oc2ccccc2)nc1`, the activity change is inactive: 7.47%. With `COc1ccc(OP(C)(=O)Nc2ccc(Br)cc2)cc1` (stereo not drawn), the activity change is inactive: 11.2%. To `COc1ccc(C2=NCC(CBr)S2)cc1` (stereo not drawn) belongs inactive: 4.87%; to `CCN(CC)CC(O)COC(=O)C(O)(c1ccccc1)C1CCCCC1` (stereo not drawn), inactive: 2.47%. As to `COC(=O)C1(C)COP(=O)(Nc2ccccc2)OC1` (stereo not drawn), the activity change was inactive: -0.34%. As for `CC(C)(C)C(=O)NC(Sc1ccncn1)C(Cl)(Cl)Cl` (stereo not drawn), the activity change was inactive: 3.71%. To `CCOC(=O)c1ccc(NP(C)(=O)Oc2ccc(Cl)cc2)cc1` (stereo not drawn) belongs inactive: -4.9%; to `CP(=O)(OC12CC3CC(CC(C3)C1)C2)OC12CC3CC(CC(C3)C1)C2`, inactive: -3.81%. As to `Nc1ccc2c(ccc3cccnc32)n1.O=[N+]([O-])c1cc([N+](=O)[O-])c(O)c([N+](=O)[O-])c1`, the activity change is inactive: -23.6%. To `O=P1(N(CCCl)CCCl)OCCCS1` (stereo not drawn) belongs inactive: 1.51%. Take `CCN(N=Nc1nonc1N)c1nonc1N`: the activity change was inactive: 4.87%. For `CP(=O)(OCCOc1ccccc1)OCCOc1ccccc1`, the activity change is inactive: -13.4%. To `CCCCCCCCCCCCCCCC1C[N+](C)(C)CCOP(C)(=O)O1` (stereo not drawn) belongs inactive: 0%; to `CP(=O)(Nc1ccc(Cl)cc1Cl)Oc1ccccc1` (stereo not drawn), inactive: 0%. To `Cc1ccc(NP(=O)(Oc2ccccc2F)Oc2ccccc2F)nc1` belongs inactive: 0.601%; to `CN(C(=O)Cc1ccc(Cl)c(Cl)c1)[C@H]1CCCC[C@@H]1N1CCCC1`, inactive: 6.03%. For `COc1ccccc1OP(C)(=O)Nc1ccc(C)c(C)c1` (stereo not drawn) the value was inactive: 0.951%. As for `CCOP(=O)(Nc1ccccc1)OCC`, the activity change was inactive: -2.74%. On to `Cc1cc(SC(NC(=O)c2ccc(F)cc2)C(Cl)(Cl)Cl)ncn1` (stereo not drawn), for which the activity change is inactive: 6.53%. For `COc1ccc(OP(C)(=O)Nc2ccccc2Br)cc1` (stereo not drawn) the value was inactive: -2.6%; for `CCCC1OP(N)(=O)OCC1CC` (stereo not drawn), inactive: 11.1%. For `O=C(O)c1ccccc1[As](=O)(O)O` the value was inactive: -5.38%; for `CC(=O)Nc1ccc([As](=O)(O)O)cc1`, inactive: -1.5%; for `Cc1cc(C)cc(OP(C)(=O)Nc2cccc(C(F)(F)F)c2)c1` (stereo not drawn), inactive: -21.9%.

Turning to `CN(C)P(=O)(N(C)C)n1c(Nc2ccccc2)nnc1-c1ccccc1`, the activity change was inactive: 1.75%.

Turning to `O=P(Nc1nc2ccc(Cl)cc2s1)(c1ccccc1)c1ccccc1`, the activity change was inactive: 6.63%. To `COc1ccccc1OP(C)(=O)Nc1ccc(C)cc1C` (stereo not drawn) belongs inactive: -0.382%.

As for `CP(=O)(Nc1ccccn1)Oc1ccccc1` (stereo not drawn), the activity change is inactive: 1.87%. For `CCc1ccc(OP(C)(=O)O)cc1` the value was inactive: -0.988%; for `O=[N+]([O-])C1C(O)C(O)C([N+](=O)[O-])C(O)C1O` (stereo not drawn), inactive: 1.92%; for `CC(C)CC(=O)NC(Sc1ccc(Cl)cc1)C(Cl)(Cl)Cl` (stereo not drawn), inactive: 0.696%. For `O=[N+]([O-])c1cc([N+](=O)[O-])c(Nc2ccccn2)c([N+](=O)[O-])c1` the value was inactive: 1.14%.

In the case of `Cc1c(NP(C)(=O)Oc2ccc(C(C)C)cc2)c(=O)n(-c2ccccc2)n1C` (stereo not drawn), the activity change was inactive: 6.59%.

As to `Nc1cc(N)c2nonc2c1[N+](=O)[O-]`, the activity change was inactive: -9.17%.
